{"source": "paper PMC7722354", "about": "“7-Substituted 2-Nitro-5,6-dihydroimidazo[2,1-b][1,3]oxazines: Novel Antitubercular Agents Lead to a New Preclinical Candidate for Visceral Leishmaniasis” (Journal of Medicinal Chemistry, 2017)", "key": {"M. tb, strain H37Rv [1]": {"tested_on": "M. tb, strain H37Rv", "experiment": "LORA minimum inhibitory concentration assay (hypoxic)", "format": "cell-based", "settings": "Mycobacterium tuberculosis"}, "M. tb, strain H37Rv [2]": {"tested_on": "M. tb, strain H37Rv", "experiment": "MABA minimum inhibitory concentration assay (aerobic)", "format": "cell-based", "settings": "Mycobacterium tuberculosis, read-out: MIC MABA, aerobic"}}, "data": [{"smiles": "O=[N+]([O-])c1cn2c(n1)O[C@H](COc1ccc(-c3ccc(F)cc3)nc1)CC2", "values": [{"measurement": "MIC", "setting": "M. tb, strain H37Rv [1]", "result": 3.9, "unit": "µM"}, {"measurement": "MIC", "setting": "M. tb, strain H37Rv [2]", "result": 1.1, "unit": "µM"}]}, {"smiles": "O=[N+]([O-])c1cn2c(n1)OC(COc1ccc(-c3ccc(F)cc3)nc1)CC2", "note": "(stereo not drawn)", "values": [{"measurement": "MIC", "setting": "M. tb, strain H37Rv [1]", "result": 2.4, "unit": "µM"}, {"measurement": "MIC", "setting": "M. tb, strain H37Rv [2]", "result": 0.23, "unit": "µM"}]}, {"smiles": "O=[N+]([O-])c1cn2c(n1)O[C@@H](COc1ccc(-c3ccc(F)cc3)nc1)CC2", "note": "[compound 79, (7R)-7-({[6-(4-Fluorophenyl)pyridin-3-yl]oxy}methyl)-2-nitro-6,7-dihydro-5H-imidazo[2,1-b][1,3]oxazine]", "values": [{"measurement": "MIC", "setting": "M. tb, strain H37Rv [1]", "result": 3.2, "unit": "µM"}, {"measurement": "MIC", "setting": "M. tb, strain H37Rv [2]", "result": 0.11, "unit": "µM"}]}]}
